Values of other authors, collected in PubChem BioAssay AID977610.

What was measured:
Assay in all cases: PubChem AID 977610
[1] = molecular target: HIV PROTEASE RETROPEPSIN 3 (I47A); settings: PDB protein-ligand complexes, literature Ki; protein: HIV PROTEASE RETROPEPSIN 3 (I47A); PDB entry 2QHC
[2] = molecular target: B/Perth Neuraminidase D197E mutant; settings: PDB protein-ligand complexes, literature Ki; protein: B/Perth Neuraminidase D197E mutant; PDB entry 3K3A
HIV-1 protease I84V = settings: PDB protein-ligand complexes, literature Ki; protein: HIV-1 protease I84V; PDB entry 1MES
HIV-1 protease V82F = settings: PDB protein-ligand complexes, literature Ki; protein: HIV-1 protease V82F; PDB entry 1MET
HIV-1 protease v82f i84v = settings: PDB protein-ligand complexes, literature Ki; protein: HIV-1 protease v82f i84v; PDB entry 1MEU

Cc1cccc(C)c1OCC(=O)N[C@@H](Cc1ccccc1)[C@@H](O)C[C@H](Cc1ccccc1)NC(=O)[C@H](C(C)C)N1CCCNC1=O
Ki [1]: 0.0011 µM

CCC(CC)O[C@@H]1C=C(C(=O)O)C[C@H](N)[C@H]1NC(C)=O
Ki [2]: 0.084 µM

O=C1N(Cc2ccc(CO)cc2)[C@H](Cc2ccccc2)[C@H](O)[C@@H](O)[C@@H](Cc2ccccc2)N1Cc1ccc(CO)cc1
Ki (HIV-1 protease I84V): 0.02 µM
Ki (HIV-1 protease V82F): 0.0004 µM
Ki (HIV-1 protease v82f i84v): 0.8 µM
